Record: PubChem BioAssay AID624099 (ICCB-Longwood, 2012)
Aim: 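Knock-downs relieving repression by E2 of an HPV18 LCR luciferase reporter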 (primary screen). Cells: human C33A cervical carcinoma cells (HPV-negative) stably expressing BPV1 E2 and an HPV18 LCR luciferase reporter. Knock-down reagent: siRNA pool against human genes, 40 nM. Timing: 72 h. Measurement: 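Per-well luciferase luminescence, z-scored on each plate against the plate mean and SD with control wells left out, then averaged across three replicate plates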. Direction: mean z-score and z-score: higher = stronger reporter signal, weaker E2 silencing. Hit rule: 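Hit if mean z-score reaches 2 and two or more of three replicate z-scores also reach 2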.
The whole screen tested about 21,000 reagents; below is a random part of them. 497 of all reagents (2.4%) were called active. 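Higher z means weaker E2 silencing; only reporter increases were scored, and knock-downs that hurt cell survival may mask genuine repressor factors.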

How did the screen score ZNF347?
mean z-score: -0.19; z-score, replicate A: -0.21; z-score, replicate B: -0.28; z-score, replicate C: -0.06; Outcome: inactive

How did the screen score HAPSTR1?
mean z-score: -1.52; z-score, replicate A: -1.57; z-score, replicate B: -1.48; z-score, replicate C: -1.49; Outcome: inactive

With ATP8A2, what does the deposit list?
mean z-score: -0.14; z-score, replicate A: -0.35; z-score, replicate B: -0.13; z-score, replicate C: 0.07; Outcome: inactive

For SPA17, what was measured?
mean z-score: -0.52; z-score, replicate A: -0.63; z-score, replicate B: -0.68; z-score, replicate C: -0.24; Outcome: inactive

How did the screen score LOC391764 (retired record)?
mean z-score: 0.22; z-score, replicate A: 0.22; z-score, replicate B: 0.35; z-score, replicate C: 0.08; Outcome: inactive

For TP53TG3, what does the deposit list?
mean z-score: 0.75; z-score, replicate A: 0.77; z-score, replicate B: 0.84; z-score, replicate C: 0.64; Outcome: inactive

For ARL15, what was measured?
mean z-score: -0.18; z-score, replicate A: -0.17; z-score, replicate B: 0; z-score, replicate C: -0.38; Outcome: inactive

For NDUFS5, what does the deposit list?
mean z-score: -0.36; z-score, replicate A: -0.07; z-score, replicate B: -0.36; z-score, replicate C: -0.66; Outcome: inactive

How did the screen score ATP11C?
mean z-score: 0.26; z-score, replicate A: 0.42; z-score, replicate B: 0.27; z-score, replicate C: 0.07; Outcome: inactive

With LOC402488 (retired record), what does the deposit list?
mean z-score: -1.7; z-score, replicate A: -1.71; z-score, replicate B: -1.61; z-score, replicate C: -1.79; Outcome: inactive

Which result is listed for ANXA2P1?
mean z-score: -0.67; z-score, replicate A: -0.66; z-score, replicate B: -0.79; z-score, replicate C: -0.56; Outcome: inactive

With LOC402326 (retired record), what was measured?
mean z-score: 0.85; z-score, replicate A: 1.09; z-score, replicate B: 0.41; z-score, replicate C: 1.06; Outcome: inactive

How did the screen score RAB29?
mean z-score: 3.08; z-score, replicate A: 2.83; z-score, replicate B: 3.14; z-score, replicate C: 3.28; Outcome: active

With DUSP14, what does the deposit list?
mean z-score: -0.26; z-score, replicate A: -0.13; z-score, replicate B: -0.51; z-score, replicate C: -0.15; Outcome: inactive

For PCDHB3, what was measured?
mean z-score: -0.47; z-score, replicate A: -0.25; z-score, replicate B: -0.4; z-score, replicate C: -0.75; Outcome: inactive

For ICAM5, how do the results read?
mean z-score: 0.21; z-score, replicate A: 0.33; z-score, replicate B: 0.01; z-score, replicate C: 0.29; Outcome: inactive

With RASGRP3, how do the results read?
mean z-score: 0.56; z-score, replicate A: 0.36; z-score, replicate B: 0.53; z-score, replicate C: 0.78; Outcome: inactive

How did the screen score MISP?
mean z-score: -0.15; z-score, replicate A: -0.5; z-score, replicate B: 0.14; z-score, replicate C: -0.08; Outcome: inactive

With FGF20, what does the deposit list?
mean z-score: 0.41; z-score, replicate A: 0.73; z-score, replicate B: 0.28; z-score, replicate C: 0.24; Outcome: inactive

Which result is listed for STAT2?
mean z-score: -0.13; z-score, replicate A: 0.08; z-score, replicate B: -0.1; z-score, replicate C: -0.37; Outcome: inactive

What is on record for AGFG2?
mean z-score: -0.47; z-score, replicate A: -0.59; z-score, replicate B: -0.01; z-score, replicate C: -0.79; Outcome: inactive

3 entries from above, set out differently.
| Target gene | mean z-score | z-score, replicate A | z-score, replicate B | z-score, replicate C | Outcome |
| --- | --- | --- | --- | --- | --- |
| LOC402326 (retired record) | 0.85 | 1.09 | 0.41 | 1.06 | inactive |
| RAB29 | 3.08 | 2.83 | 3.14 | 3.28 | active |
| DUSP14 | -0.26 | -0.13 | -0.51 | -0.15 | inactive |
